A mixed list of measured activities; the numbers were collected in NIAID ChemDB.

Common to all: cytotoxicity tests; cells: MT-4; measure: CC50

CCn: concentration that lowers growth or viability of the cells by n%. Conditions beyond the fields shown may differ between rows. Blank or dashed fields: not listed here.

compound,read by,result
O=C(Cc1ccc(CC(=O)NCCN2CCCCC2)cc1)NCCN1CCCCC1,MTT,>302 µM
COc1cc(CN2CCCNCCNCCCNCC2)c(OC)cc1CN1CCCNCCNCCCNCC1,,185 µg/mL
C[C@H](CCC(=O)O)[C@H]1CC[C@H]2[C@@H]3[C@H](O)C[C@@H]4C[C@H](O)CC[C@]4(C)[C@H]3C[C@H](O)[C@]12C,,240 µg/mL
Cc1cc(C#N)cc(C)c1Oc1nc(Nc2ccc(C#N)cc2)nc(N)c1Br,MTT,4.41 µM
COC(=O)[C@H](NP(=O)(OC[C@H]1C=C[C@@H](n2cnc3c(N)ncnc32)C1)Oc1ccccc1)C(C)C,trypan blue,101 µM
Cc1cc(C)c(Nc2nc(NC3CCN(Cc4ccncc4)CC3)nc3nc[nH]c23)c(C)c1,MTT,141 µM
C[C@H](CCC(=O)O)[C@H]1CC[C@H]2[C@@H]3CC[C@@H]4C[C@H](OS(=O)(=O)O)CC[C@]4(C)[C@H]3C[C@H](OS(=O)(=O)O)[C@]12C,,>311 µg/mL
Cc1cc(C)cc(Cc2cc(=O)[nH]c(OC3CCCC3)n2)c1,,>335 µM
Cc1cn([C@H]2C[C@H](N=[N+]=[N-])[C@@H](CO)O2)c(=O)[nH]c1=O,,35.6 µM
CCOC(=O)c1cn(Cc2cccnc2)c(Sc2cc(Cl)cc(Cl)c2)c1C(C)C,MTT,>200 µM
Cc1cc(CC#N)cc(C)c1Nc1ccnc(Nc2ccc(C#N)cc2)n1,MTT,10 µM
C[C@H](CCC(=O)O)[C@H]1CC[C@H]2[C@@H]3C[C@H](OS(=O)(=O)O)[C@@H]4C[C@H](OS(=O)(=O)O)CC[C@]4(C)[C@H]3CC[C@]12C,,>500 µg/mL
NC(=O)CN1C(=O)N(Cc2ccccc2)c2cscc2S1(=O)=O,,>355.7 µM
O=[N+]([O-])c1cc(CN2CCCNCCNCCCNCC2)cc(CN2CCCNCCNCCCNCC2)c1,,>250 µg/mL
Cc1cc(C)cc(C(=O)c2cccnc2Oc2ccc(N)cc2)c1,MTT,123 µM
COC(=O)[C@H](CCCCN)NP(=O)(OC[C@H]1C=C[C@@H](n2cnc3c(N)ncnc32)C1)Oc1ccccc1,trypan blue,>250 µM
Cc1cc(C#N)cc(C)c1Oc1nc(N/N=C/c2ccc(C#N)c(F)c2)nc2ccsc12,MTT,215 µM
COc1nc(Cc2cc(C)cc(C)c2)c(C)c(=O)[nH]1,,>387 µM
COC(=O)[C@H](CCSC)NP(=O)(OC[C@H]1C=C[C@@H](n2cnc3c(N)ncnc32)C1)Oc1ccccc1,trypan blue,34.7 µM
Cc1cc(C#N)cc(C)c1Oc1nc(N/N=C/C2CCN(Cc3ccc(S(=O)(=O)NC4CCOCC4)cc3)CC2)nc2ccsc12,MTT,4.42 µM
Cc1cc(C)cc(C(=O)c2cccnc2Oc2ccc(C(=O)O)cc2)c1,MTT,150 µM
c1cc(CNCCN2CCCCC2)ccc1CNCCN1CCCCC1,MTT,32.6 µM
Cc1cccc(Cc2cc(=O)[nH]c(OC3CCCC3)n2)c1,,352 µM
Cc1cc(C#N)cc(C)c1Nc1ccnc(Nc2ccc(C#N)cc2)n1,MTT,5 µM
O=C(Cc1ccc(CNCCCN2CCCC2)cc1)NCCCN1CCOCC1,MTT,>62.1 µM
Cc1cc(C)cc(Cc2nc(OCC(C)C)[nH]c(=O)c2C)c1,,77 µM
CCOC(=O)c1cn(Cc2c(F)cccc2F)c(Sc2cc(Cl)cc(Cl)c2)c1C(C)C,MTT,>200 µM
CC(C)Nc1cccnc1N1CCN(C(=O)c2cc3cc(NS(C)(=O)=O)ccc3[nH]2)CC1,MTT,>20 µM
Cc1cc(C)cc(C(=O)c2cccnc2Nc2ccc(S(N)(=O)=O)cc2)c1,MTT,176 µM
c1cc(CNCCCCN2CCCCC2)ccc1CNCCCCN1CCCCC1,MTT,>60.29 µM
Cc1cc(C#N)cc(C)c1Oc1nc(N/N=C/C2CCN(Cc3ccc(S(N)(=O)=O)cc3)CC2)nc2ccsc12,MTT,3.6 µM
CCOC(=O)c1cn(Cc2ccncc2)c(Sc2cc(C)cc(C)c2)c1C(C)C,MTT,≥200 µM
O=C1CSC(c2c(F)cccc2F)N1Cc1ccco1,,208 µM
Cc1cc(C)c(Nc2nc(NC3CCN(Cc4ccc(Br)cc4)CC3)nc3nc[nH]c23)c(C)c1,MTT,11.45 µM
CC1CCN(CCCN2c3ccccc3NCc3cccn32)CC1,,62 µM
Cc1cc(C)c(Nc2nc(NC3CCN(Cc4cccc(C#N)c4)CC3)nc3nc[nH]c23)c(C)c1,MTT,25.4 µM
O=C(Cc1ccc(CC(=O)NCCCN2CCOCC2)cc1)NCCCN1CCOCC1,MTT,>280 µM
CN1C(=O)N(Cc2ccccc2)S(=O)(=O)c2csc([N+](=O)[O-])c21,,37.1 µM
COC(=O)[C@@H](CC(C)C)NP(=O)(OC[C@H]1C=C[C@@H](n2cnc3c(N)ncnc32)C1)Oc1ccccc1,trypan blue,77.1 µM
CN(C)c1ccc(C2SCC(=O)N2Cc2ccco2)cc1,,43.36 µM
Cc1cc(C)cc(C(=O)c2cccnc2Nc2ccc(C(N)=O)cc2)c1,MTT,36.41 µM
c1cc(CCN2CCCNCCNCCCNCC2)ccc1CCN1CCCNCCNCCCNCC1,,>250 µg/mL
C/C(=C\C#N)c1cc(C)c(Nc2ccnc(Nc3ccc(C#N)cc3)n2)c(C)c1,MTT,30 µM
COC(=O)[C@H](C)NP(=O)(OC[C@H]1C=C[C@@H](n2cnc3c(N)ncnc32)C1)Oc1ccc([N+](=O)[O-])cc1,trypan blue,21.6 µM
Cc1ccc(Sc2c(C(C)C)c(COC(N)=O)cn2Cc2ccncc2)cc1,MTT,>200 µM
c1cc(CNCCCN2CCCCC2)ccc1CNCCCN1CCCCC1,MTT,>64.65 µM
COc1ccc(CN2C(=O)Nc3cscc3S2(=O)=O)c(OC)c1,,705.4 µM
c1cc(CN2CCCNCCCNCCNCCC2)cc(CN2CCCNCCCNCCNCCC2)c1,,>250 µg/mL
CCOC(=O)c1cn(Cc2ccccn2)c(Sc2cc(Cl)cc(Cl)c2)c1C(C)C,MTT,≥200 µM
CCOC(=O)C1Nc2ccccc2Sn2cccc21,,10 µM
Cc1nc(N2C(=O)CSC2c2c(F)cccc2F)ccc1Br,,32.79 µM
C[C@H](CC(=O)O)[C@H]1CC[C@H]2[C@@H]3CC[C@@H]4C[C@H](OS(=O)(=O)O)CC[C@]4(C)[C@H]3C[C@H](OS(=O)(=O)O)[C@]12C,,>500 µg/mL
O=C1CCSC(c2c(F)cccc2F)N1Cc1ccco1,,181.3 µM
O=C1Nc2ccccc2S(=O)(=O)n2cccc21,,>300 µM
CCCN1C(=O)N(Cc2ccccc2)S(=O)(=O)c2cscc21,,>743.1 µM
O=C(CN1C(=O)c2cccn2S(=O)(=O)c2ccccc21)OCc1ccccc1,,>300 µM
Cc1cc(C)c(Nc2nc(NC3CCN(Cc4ccccc4C)CC3)nc3nc[nH]c23)c(C)c1,MTT,7.81 µM
CN1C(=O)N(c2cccc(Cl)c2)S(=O)(=O)c2cscc21,,484.5 µM
Cc1cc(C#N)cc(C)c1Oc1nc(N/N=C/C2CCN(Cc3ccc(S(C)(=O)=O)cc3)CC2)nc2ccsc12,MTT,4.62 µM